The experiment deals with LRRC15 isoform 2 (transcript 2), TurboGFP-tagged, in HEK293T cells (human) (UniProt Q8TF66). In words: flow cytometry on cells. On the technique in general: Flow cytometry measures light scatter and fluorescence of single cells or particles in a stream.

On to “SARS-CoV-2 HexaPro spike ectodomain, Alexa Fluor 647-conjugated (from UniProt P0DTC2 14-1208) (domain or fragment)”, for which the percent spike-positive cells was 64.5%.

For the origin of these results see paper PMC9910744, “Fibroblast-expressed LRRC15 is a receptor for SARS-CoV-2 spike and controls antiviral and antifibrotic transcriptional programs” (2023).
